# Biological target: Acetylcholinesterase (AChE) (Electrophorus electricus, UniProt O42275)
# Chains of the proteins cited; added tags and fusions are not shown. Lines headed by an entry give the natural chain unless they say otherwise; changes in a name come on top.
# UniProt O42275: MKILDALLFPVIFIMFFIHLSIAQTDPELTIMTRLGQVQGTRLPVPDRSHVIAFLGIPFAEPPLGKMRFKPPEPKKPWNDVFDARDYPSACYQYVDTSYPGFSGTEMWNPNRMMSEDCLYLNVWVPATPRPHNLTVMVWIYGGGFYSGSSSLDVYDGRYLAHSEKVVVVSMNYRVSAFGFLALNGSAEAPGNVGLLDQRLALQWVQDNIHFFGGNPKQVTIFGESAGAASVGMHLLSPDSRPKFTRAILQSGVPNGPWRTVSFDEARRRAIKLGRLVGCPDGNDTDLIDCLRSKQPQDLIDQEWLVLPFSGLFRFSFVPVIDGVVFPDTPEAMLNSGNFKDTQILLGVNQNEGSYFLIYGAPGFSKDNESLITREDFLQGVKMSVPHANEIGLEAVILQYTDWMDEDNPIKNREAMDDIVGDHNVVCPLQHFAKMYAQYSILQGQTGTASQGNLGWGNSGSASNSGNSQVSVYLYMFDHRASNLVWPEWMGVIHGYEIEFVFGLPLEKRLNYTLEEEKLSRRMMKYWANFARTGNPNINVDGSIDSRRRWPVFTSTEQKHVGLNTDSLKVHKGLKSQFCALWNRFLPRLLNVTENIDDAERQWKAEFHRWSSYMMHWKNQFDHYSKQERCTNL
# Settings: co-contaminant present in sample
substance,measurement,value
Aflatoxin M1,Interference with analysis of organophosphates,no interference

# — patent publication US20150290612A1 (priority 2012, published 2015)
